Test system: Zymoseptoria tritici
Assay type: cell-based

| SMILES | RF in comparison with reference strain IPO323 |
| --- | --- |
| Cn1cc(C(=O)Nc2ccc(F)cc2-c2ccc(Cl)c(Cl)c2)c(C(F)F)n1 [Bixafen, bixafen] | < 10 |
| Cc1cc(OC(C)C)ccc1C(=O)C(C)(C)NC(=O)c1sccc1C [Isofetamid, N‐[1,1‐dimethyl‐2‐(4‐isopropoxy‐o‐tolyl)‐2‐oxoethyl]‐3‐methylthiophene‐2‐carboxamide] | > 174 |
